Compound potency records, mixed from different reports. Data source: NIAID ChemDB in PubChem.

Common to all: whole-cell or culture tests; species: Mycobacterium tuberculosis

An empty or dashed field is not shown. Neighbouring rows are from separate reports. a–b is a range or a potency band. A number after MIC or MFC names an inhibition level or a share of isolates. Inhibition is in % at the dose shown (toxicity tests: loss of growth or viability). MIC bound: limit read from a one-dose screen. ECn is the concentration giving n% inhibition of infection, replication or growth.

structure,changes,setting,tested at,read by,cells,read-out,strain,result
CCCN1CCN(c2cc(=O)c3nc4c(oc3c2)c2c(=O)c3c(O)c(C)c5c(c34)=C(O)[C@@](C)(O/C=C/[C@H](OC)[C@@H](C)[C@@H](OC(C)=O)[C@H](C)[C@H](O)[C@H](C)[C@@H](O)[C@@H](C)/C=C/C=C(/C)C(=O)N2)O5)CC1,,,,,,MIC,H37Rv,0.035 µg/mL
O=c1oc2ccccc2cc1-c1cs/c(=N/N=C/c2ccc(F)cc2)n1C1CCCCC1,,,,,,MIC,H37Rv,>6.25 µg/mL
CCCCC(CC)CN1CN(CC(CC)CCCC)CC(C)(NCCNC2CCCCCCC2)C1,,,,,,MIC,,12.5 µM
O=c1oc2ccccc2cc1-c1cs/c(=N\N=C\c2cc([N+](=O)[O-])ccc2O)n1C1CCCCC1,,,,,,EC50,H37Rv,>6.25 µg/mL
CC1CC2C(=S)NC(=O)C(c3ccccc3)=C2O1,,,12.5 µg/mL,BACTEC,,inhibition,H37Rv,80%
NC1CCN(c2nc3c(cc2F)c(=O)c(C(=O)O)cn3-c2ccc(F)cc2F)C1,,,,,,MIC,ATCC 35820,4 µg/mL
CCCc1nc2ccc(Br)cc2c2nc3ccccc3n12,,,,resazurin,,MIC99,H37Rv,1.56 µg/mL
CO[C@H]1/C=C/O[C@@]2(C)Oc3c(C)c(O)c4c(O)c(c(/C=N/N5CCN(C)CC5)c(O)c4c3C2=O)NC(=O)/C(C)=C\C=C\[C@H](C)[C@H](O)[C@@H](C)[C@@H](O)[C@@H](C)[C@H](OC(C)=O)[C@@H]1C,Multidrug-resistant,,,resazurin,,MIC,FJ05189,>256 µg/mL
COc1ccc(CNNC(=O)c2cc[n+]([B]C#N)cc2)cc1OC,,,,,,MIC,H37Rv,0.39 µg/mL
CCCCCN1C(=O)C(=O)c2cccc(-c3ccccc3)c21,,,,,,MIC,H37Ra,≤20 µg/mL
C[C@@H]1CN(c2c(F)c(N)c3c(=O)c(C(=O)O)cn(C4CC4)c3c2F)C[C@H](C)N1,,,,,,MBC,ATCC 35830,0.03 µg/mL
CC(NNC(=O)c1cc[n+]([B]C#N)cc1)c1ccccc1,,,,,,MIC,H37Rv,12.5 µg/mL
CC(CNC[C@@H]1CC[C@H]2C[C@@H]1C2(C)C)N[C@H]1C[C@H]2CC[C@]1(C)C2(C)C,,,,,,MIC,,50 µM
O=c1oc2ccccc2cc1-c1cs/c(=N/N=C/c2ccc(Br)cc2)n1C1CCCCC1,,,6.25 µg/mL,,,inhibition,H37Rv,0%
C[C@@H]1CN(c2c(F)c(N)c3c(=O)c(C(=O)O)cn(C4CC4)c3c2F)C[C@H](C)N1,,,,,,MIC90,20 strains,≤0.01 µg/mL
CC(CNCCNCCC1=CCCCC1)c1ccccc1,,,,,,MIC,,50 µM
COc1ccc(/C=N/N=c2/scc(-c3cc4cc(Br)ccc4oc3=O)n2C2CCCCC2)cc1OC,,,,,,EC50,H37Rv,>6.25 µg/mL
CO[C@H]1/C=C/O[C@@]2(C)Oc3c(C)c(O)c4c(=O)c(c5oc6cc(N7CCN(CC(C)C)CC7)cc(=O)c6nc5c4c3=C2O)NC(=O)/C(C)=C\C=C\[C@H](C)[C@H](O)[C@@H](C)[C@@H](O)[C@@H](C)[C@H](OC(C)=O)[C@@H]1C,,,,,,MIC90,20 strains,0.035 µg/mL
COc1cc(/C=N/N=c2/scc(-c3cc4cc(Br)ccc4oc3=O)n2C2CCCCC2)ccc1O,,,6.25 µg/mL,,,inhibition,H37Rv,13%
Clc1ccc(CCNCCNC2CCCCCCC2)c(Cl)c1,,,,,,MIC,,50 µM
CC(C)c1ccc(OCc2cc(-c3ccc(OC[C@@]4(C)Cn5cc([N+](=O)[O-])nc5O4)cc3)no2)cc1,,,,broth dilution / resazurin,,MIC,ss18b non-replicating phase,2.04 µM
Cc1ccc2nc(C)n3c4ccccc4nc3c2c1,,,,resazurin,,MIC99,H37Rv,0.78 µg/mL
O=C1OC(c2ccccc2)=NC1=Cc1ccccc1F,,,12.5 µg/mL,BACTEC,,inhibition,H37Rv,94%
O=C(NNCc1ccccc1)c1ccncc1,,,,,,MBC,Rifampicin-resistant,1.56 µg/mL
C[C@]1(COc2ccc(-n3cc(-c4cccc(C(F)(F)F)c4)nn3)cc2)Cn2cc([N+](=O)[O-])nc2O1,,,,broth dilution / resazurin,,MIC,H37Rv,8.23 µM
CCCc1nc2ccc(Cl)cc2c2nc3ccccc3n12,,,,resazurin,,MIC99,H37Rv,>25 µg/mL
CC1CCCC(NCCNCc2ccc(C(F)(F)F)cc2)C1C,,,,,,MIC,,>50 µM
O=C(Nc1ccc(C2=NCCN2)cc1)c1cccc(C(=O)Nc2ccc(C3=NCCN3)cc2)n1,,,,BACTEC,,MIC,H37Rv,>128 µg/mL
Clc1ccc2ncn3c4ccccc4nc3c2c1,,,,resazurin,,MIC99,H37Rv,>25 µg/mL
CCCCCCCCCCCN1C(=O)C(=O)c2cccc(-c3ccccc3)c21,,,,,,MIC,H37Ra,≤20 µg/mL
COc1ccc(-n2cnn3c(=O)c4cn[nH]c4nc23)cc1,,,6.25 µg/mL,resazurin,,inhibition,H37Rv,2%
CCCCc1nc2ccc(C)cc2c2nc3ccccc3n12,,,,resazurin,,MIC99,H37Rv,25 µg/mL
CO[C@H]1/C=C/O[C@@]2(C)Oc3c(C)c(O)c4c(=O)c(c5oc6cc(N7CCN(CC(C)C)CC7)cc(=O)c6nc5c4c3=C2O)NC(=O)/C(C)=C\C=C\[C@H](C)[C@H](O)[C@@H](C)[C@@H](O)[C@@H](C)[C@H](OC(C)=O)[C@@H]1C,,inside macrophages,1 µg/mL,,,inhibition,Kurono,95.6%
Nc1ccn([C@@H]2O[C@H](C(O[C@@H]3O[C@H](CO)[C@@H](O)[C@H](N)[C@H]3O)[C@@H](O)[C@@H](O)[C@@H](O)[C@@H](O)CO)[C@@H](N)[C@H](O)[C@H]2O)c(=O)n1,,,,,,MIC,CS-R,12.5 µg/mL
Cc1c(OCC(F)(F)F)ccnc1CSc1nc2ccccc2[nH]1,,clinical isolate,,resazurin,,MIC90,,0.49 µM
O=C1C(=O)N(CCC2CCN(Cc3ccccc3)CC2)c2ccc(C3CCCCC3)cc21,,,,,,MIC,H37Ra,≤20 µg/mL
Cc1ccc(NC=O)cc1Cl,,,12.5 µg/mL,BACTEC,,inhibition,H37Rv,0%
CC(NCCNC1CCCCCCC1)c1cccc2ccccc12,,,,,,MIC,,25 µM
COc1cc(-c2ccc(N=NC(C(C)=O)C(=O)Nc3ccccc3C)c(OC)c2)ccc1N=NC(C(C)=O)C(=O)Nc1ccccc1C,,,,BACTEC,,MIC bound,H37Rv,>12.5 µg/mL
COc1ccccc1/C=N/N=c1\scc(-c2cc3cc(Br)ccc3oc2=O)n1C1CCCCC1,,,,,,MIC,H37Rv,>6.25 µg/mL
CC(C)CN1C(=O)C(=O)c2cccc(-c3ccccc3)c21,,,,,,MIC,H37Ra,≤20 µg/mL
COc1ccc(OC)c(/C=N/N=c2/scc(-c3cc4cc(Br)ccc4oc3=O)n2C2CCCCC2)c1,,,6.25 µg/mL,,,inhibition,H37Rv,3%
O=C1NC(Nc2ccc(Cl)cc2)=N/C1=C\c1c(Cl)cccc1Cl,,,12.5 µg/mL,,,inhibition,H37Rv,17%
Cc1cc(O)c2c(oc3cc(O)c4c(c32)COC4=O)c1C(=O)O,,,,BACTEC,,MIC bound,H37Rv,>12.5 µg/mL
COc1ccc(CN=C2NC(=O)/C(=C/c3ccccc3Cl)N2)cc1,,,,,,MIC,H37Rv,>6.25 µg/mL
CC(C)CC(C)NCCNCCc1ccccc1,,,,,,MIC,,50 µM
COc1ccc(OC)c2c(Cl)cc(NCCCCCCCCNc3cc(Cl)c4c(OC)ccc(OC)c4n3)nc12,,,,BACTEC,,MIC bound,H37Rv,>12.5 µg/mL
O=c1oc2ccc(Br)cc2cc1-c1cs/c(=N/N=C/c2ccc(F)cc2)n1C1CCCCC1,,,,,,EC50,H37Rv,>6.25 µg/mL
CNC(=S)SSC(=S)NCCNC(=S)SSC(=S)NC,,,6.25 µg/mL,resazurin,,inhibition,H37Rv,85%
CO[C@H]1/C=C/O[C@@]2(C)Oc3c(C)c(O)c4c(O)c(c5c(c4c3C2=O)NC2(CCN(CC(C)C)CC2)N=5)=NC(=O)/C(C)=C\C=C\[C@H](C)[C@H](O)[C@@H](C)[C@@H](O)[C@@H](C)[C@H](OC(C)=O)[C@@H]1C,,,,,,MIC,Strain 62 (M515V),0.015 µg/mL
COC(=O)/C(N=Nc1cccc(C)c1)=C(\C)O,,,6.25 µg/mL,resazurin,,inhibition,H37Rv,7%
O=C1NC(=Nc2ccc(Cl)cc2Cl)N/C1=C\c1ccc(Cl)cc1Cl,,,12.5 µg/mL,,,inhibition,H37Rv,96%
C[C@]1(COc2ccc(-n3cc(COc4ccccc4F)nn3)cc2)Cn2cc([N+](=O)[O-])nc2O1,,,,broth dilution / resazurin,,MIC,H37Rv,0.54 µM
CC[C@H]1OC(=O)[C@H](C)[C@@H](O[C@H]2C[C@@](C)(OC)[C@@H](O)[C@H](C)O2)[C@H](C)[C@@H](O[C@@H]2O[C@H](C)C[C@H](N(C)C)[C@H]2O)[C@](C)(O)C[C@@H](C)C(=O)[C@H](C)[C@@H](O)[C@]1(C)O,,,,,,MIC50,MDR,>8 µg/mL
CO[C@H]1/C=C/O[C@@]2(C)Oc3c(C)c(O)c4c(=O)c(c5oc6cc(N7CCN(C(C)C)CC7)cc(=O)c6nc5c4c3=C2O)NC(=O)/C(C)=C\C=C\[C@H](C)[C@H](O)[C@@H](C)[C@@H](O)[C@@H](C)[C@H](OC(C)=O)[C@@H]1C,,,,,,MIC90,20 strains,0.07 µg/mL
O=C(N/N=C/c1cccc(F)c1)c1ccncc1,,,,,,MIC,H37Rv (rifampin-resistant),≤2 µg/mL
CCCCC(=O)N/N=C/c1cc(Cl)cc(Cl)c1O,,,,BACTEC,,MIC bound,H37Rv,>12.5 µg/mL
Clc1ccc(CCNCCNCCC(c2ccccc2)c2ccccc2)c(Cl)c1,,,,,,MIC,,12.5 µM
Nc1ccc(Cl)c(-c2nc3ccccc3[nH]2)c1,,,12.5 µg/mL,BACTEC,,inhibition,H37Rv,26%
O=C(N/N=C/c1ccccc1F)c1ccncc1,,,,,,MIC,Rifampicin-resistant,0.05 µg/mL
Cc1ccc(S(=O)(=O)NC(=O)c2ncn([C@@H]3O[C@H](CO)[C@@H](O)[C@H]3O)c2N)cc1,,,,BACTEC,,MIC bound,H37Rv,>12.5 µg/mL
O=C1NC(=NCc2ccc(Cl)cc2)N/C1=C\c1ccccc1Cl,,,12.5 µg/mL,,,inhibition,H37Rv,45%
CCCCCCCCCCN1C(=O)C(=O)c2cccc(-c3ccccc3)c21,,,,,,MIC,H37Ra,≤20 µg/mL
NC1CCN(c2c(F)cc3c(=O)c(C(=O)O)cn(C4CC4)c3c2Cl)C1,,,,,,MIC,ATCC 35826,0.06 µg/mL
NC(=O)SCC(=O)NNc1ccccc1,,,,BACTEC,,MIC bound,H37Rv,>12.5 µg/mL
C[C@]1(COc2ccc(-c3cc(COc4cccc(Cl)c4)on3)cc2)Cn2cc([N+](=O)[O-])nc2O1,,,,broth dilution / resazurin,,MIC,H37Rv,4.15 µM
O=C(NNCc1ccccc1F)c1ccncc1,,inside macrophages,,colony count,Macrophages,EC50,Erdman,<0.28 µg/mL
O=C1C(=O)N(CCN2CCN(Cc3ccccc3)CC2)c2ccc(N3CCCCC3)cc21,,,,,,MIC,H37Ra,≤20 µg/mL
CC1COc2c(N3CCN(C)CC3)c(F)cc3c(=O)c(C(=O)O)cn1c23,,,,,,MIC50,20 strains,0.02–0.05 µg/mL
C[C@]1(COc2ccc(-c3cc(-c4ccc(F)cc4F)on3)cc2)Cn2cc([N+](=O)[O-])nc2O1,,,,broth dilution / resazurin,,MIC,H37Rv,1.1 µM
CC(C)(C)C1=NC(=S)SC2=NC(=O)C3(NN21)c1ccccc1-c1ccccc13,,,6.25 µg/mL,resazurin,,inhibition,H37Rv,91%
CCCCCCCCCCCNCCN[C@@H]1C[C@@H]2C[C@H]([C@H]1C)C2(C)C,,,,,,MIC,,25 µM
CO[C@H]1/C=C/O[C@@]2(C)Oc3c(C)c(O)c4c(O)c(c(/C=N/N5CCN(C6CCCC6)CC5)c(O)c4c3C2=O)NC(=O)/C(C)=C\C=C\[C@H](C)[C@H](O)[C@@H](C)[C@@H](O)[C@@H](C)[C@H](OC(C)=O)[C@@H]1C,,,,,,MIC,L191,0.1 µg/mL
CC(NNC(=O)c1ccncc1)c1ccc(F)cc1,,,,,,MIC,Ethionamide-resistant,>50 µg/mL
C=C(C)C1CCC2=CC(CC3(C)OC3C3=CC(C(=O)OC)=C(C1)O3)OC2=O,,,,BACTEC,,MIC bound,H37Rv,>12.5 µg/mL
O=C1NC(=NCc2ccc(F)cc2)N/C1=C\c1c(Cl)cccc1Cl,,,12.5 µg/mL,,,inhibition,H37Rv,5%
N#C[B][n+]1ccc(C(=O)NNCc2ccccc2F)cc1,,,,,,MIC,H37Rv,3.13 µg/mL
Nc1ccn([C@@H]2CS[C@H](CO)O2)c(=O)n1,,,12.5 µg/mL,BACTEC,,inhibition,H37Rv,13%
O=C(N/N=C/c1cccc(C(F)(F)F)c1)c1ccncc1,,,,,,MIC,H37Rv,0.1 µg/mL
CCc1ccccc1NC(=O)/C(CC(=O)c1c(C)n([O-])c2ccccc2[n+]1=O)=N/NS(=O)(=O)c1ccc(C)cc1,,,12.5 µg/mL,BACTEC,,inhibition,H37Rv,70%
CCCCCCCCCN1C(=O)C(=O)c2cccc(-c3ccccc3)c21,,,,,,MIC,H37Rv,≤20 µg/mL